Values quoted from earlier work, collected in patent US20220249978A1, “NOVEL SOLVENT FOR EXTRACTING, SOLUBILISING AND/OR FORMULATING VOLATILE AND NON-VOLATILE COMPOUNDS OF INTEREST IN ANIMAL NUTRITION AND HEALTH, PREPARATION METHOD AND USES THEREOF” (ID4TECH, priority 2019, published 2022).

Tested on: Staphylococcus aureus
Conditions: protein A, α-hemolysin, β-lactamase, TSST-1

## CCCCCCCCCCCC(=O)OCC(O)CO (stereo not shown) [glycerol monolaurate]
  production of exoenzymes and virulence factors: blocks the production
